Compound potency records, mixed from different reports. Data source: NIAID ChemDB in PubChem.

Common to all: growth or infection tests; organism: Herpes simplex virus 1; cells: HFF; endpoint: EC50

Lines come from different laboratories, so protocols vary. Blank or dashed fields: not listed here. ECn: concentration that inhibits the pathogen or its effect by n%.

| SMILES | strain or isolate | method | result |
|---|---|---|---|
| COC(=O)[C@H](C)NP(=O)(OC[C@H]1C/C1=C/n1cnc2c(OC)nc(N)nc21)Oc1ccccc1 | - | plaque count | 1.1 µM |
| CC(=O)Oc1ccc([C@@H]2CC(=O)c3c(cc(OC(C)=O)c(-c4c(OC(C)=O)cc5c(c4OC(C)=O)C(=O)C[C@@H](c4ccc(OC(C)=O)cc4)O5)c3OC(C)=O)O2)cc1 | E-377 | cytopathic effect | >4 µg/mL |
| N#Cc1cn([C@@H]2O[C@H](CO)[C@H](O)[C@H]2O)c2ncnc(N)c12 | - | plaque count | 0.5 µM |
| C=C1[C@H](CO)[C@@H](O)C[C@@H]1n1cnc2c(=O)[nH]c(N)nc21 | Schooler | - | 32 µM |
| N#Cc1cn(COCCO)c2ncnc(N)c12 | - | plaque count | >320 µM |
| O=C(NCCc1c[nH]c2ccccc12)C1=Cc2ccncc2CC1 | McKrae | plaque count | 2.3 µM |
| N#Cc1c(N)n(Cc2ccc(Br)cc2)c2ncnc(N)c12 | KOS | ELISA | >100 µM |
| [Cl][Sn]([Cl])([c]1ccccc1)[c]1ccccc1 | F | plaque count | 0.3 µg/mL |
| NC(=S)c1c(N)n(COC(CO)CO)c2ncnc(N)c12 | - | ELISA | >100 µM |
| Nc1ncnc2c1ccn2[C@H]1C[C@H](O)[C@@H](CO)O1 | - | plaque count | >320 µM |
| N#Cc1c(Br)n(COCCO)c2ncnc(N)c12 | - | ELISA | >100 µM |
| CCCCCCC[CH2][Sn]([Cl])([Cl])[Cl] | F | plaque count | 110 µg/mL |
| Nc1ccn([C@@H]2C[C@@H](O)[C@H](CO)O2)c(=O)n1 | - | - | >20 µM |
| C[CH2][Sn]([Cl])([Cl])[CH2]C.c1ccc(-c2nc3ccccc3[nH]2)nc1 | F | plaque count | 8.1 µg/mL |
| COC(=O)[C@H](C)NP(=O)(OC[C@@H]1C[C@]12C[C@@H]2n1cnc2c(N)ncnc21)Oc1ccccc1 | - | plaque count | 6.1 µM |
| Cc1cn([C@@H]2C[C@@H](O)[C@H](CO)O2)c(=O)[nH]c1=O | - | - | >200 µM |
| CCCCCC[CH2][Sn]([Cl])([Cl])[CH2]CCCCCC | F | plaque count | 15 µg/mL |
| NC(=O)c1cn([C@@H]2O[C@H](CO)C[C@H]2O)c2ncnc(N)c12 | - | plaque count | 60 µM |
| N#Cc1c(Br)n(COC(CO)CO)c2ncnc(N)c12 | - | ELISA | >100 µM |
| C[CH2][Sn]([Cl])([Cl])[CH2]C.c1cnc2c(c1)ccc1cccnc12 | F | plaque count | 7.6 µg/mL |
| N#Cc1c(Br)n([C@@H]2O[C@H](CO)[C@@H](O)[C@H]2O)c2ncnc(N)c12 | - | ELISA | 1.5 µM |
| CCCCCCC[CH2][Sn]([Cl])([Cl])[CH2]CCCCCCC | F | plaque count | 48 µg/mL |
| NC(=S)c1c(N)n(COCCO)c2ncnc(N)c12 | - | ELISA | >100 µM |
| OC[C@H]1O[C@@H](n2cnc3cc(Cl)c(Cl)cc32)[C@H](O)[C@@H]1O | KOS | ELISA | >30 µM |

Repeating the final 2 entries:

SMILES,strain or isolate,method,result
NC(=S)c1c(N)n(COCCO)c2ncnc(N)c12,-,ELISA,>100 µM
OC[C@H]1O[C@@H](n2cnc3cc(Cl)c(Cl)cc32)[C@H](O)[C@@H]1O,KOS,ELISA,>30 µM